Anti-infective test results gathered from many reports (values: NIAID ChemDB through PubChem).

All rows: tests in culture

Percent inhibition refers to the dose given; in toxicity tests it is the harm to the cells. A number after MIC or MFC names an inhibition level or a share of isolates. An empty or dashed field is not shown. Neighbouring rows are from separate reports.

| structure | read-out | strain or isolate | dose | setting | read by | mutations | organism | value |
|---|---|---|---|---|---|---|---|---|
| O=C(O)COC(Cn1nnnc1-c1ccccc1)c1ccc(Cl)cc1 | MIC | ATCC 21881 |  |  | broth dilution |  | Mycobacterium luteus | >200 µg/mL |
| Cn1ccc2ncnc(Nc3ccc(Oc4ccc(C(F)(F)F)cc4)cc3)c21 | MIC50 |  |  |  | luminescence |  | Mycobacterium bovis BCG | 25.9 µM |
| CC(=O)NC[C@H]1CN(c2ccc3c(c2)OCc2cncn2-3)C(=O)O1 | MIC |  |  |  |  |  | Mycoplasma pneumoniae | 4 µg/mL |
| CO[C@H]1/C=C/O[C@@]2(C)Oc3c(C)c(O)c4c(=O)c(c5oc6cc(N7CCN(CC(C)C)CC7)cc(=O)c6nc5c4c3=C2O)NC(=O)/C(C)=C\C=C\[C@H](C)[C@H](O)[C@@H](C)[C@@H](O)[C@@H](C)[C@H](OC(C)=O)[C@@H]1C | MIC | N-475 (HIV-) |  |  |  |  | Mycobacterium avium intracellulare | 0.016 µg/mL |
| Fc1ccc2c(Nc3ccc(NCCN4CCOCC4)cc3)ncnc2c1 | MIC50 |  |  |  | luminescence |  | Mycobacterium bovis BCG | >10 µM |
| CO[C@H]1/C=C/O[C@@]2(C)Oc3c(C)c(O)c4c(O)c(c5c(c4c3C2=O)NC2(CCN(CC(C)C)CC2)N=5)=NC(=O)/C(C)=C\C=C\[C@H](C)[C@H](O)[C@@H](C)[C@@H](O)[C@@H](C)[C@H](OC(C)=O)[C@@H]1C | MIC | 119 |  |  |  |  | Mycobacterium avium intracellulare | 0.5 µg/mL |
| O=C(COC(Cn1nnnc1-c1ccccc1)c1ccc(Cl)cc1)NNC(=S)Nc1ccccc1 | MIC | ATCC 21881 |  |  | broth dilution |  | Mycobacterium luteus | >200 µg/mL |
| CCc1cc(C(N)=S)ccn1 | inhibition | 31 strains | 2.5 µg/mL |  | broth dilution |  | Mycobacterium avium complex | 16.1% |
| O=C(Oc1ccc(Cl)cc1C(=O)Nc1cccc(Cl)c1)c1cnccn1 | MIC | 235/80 |  | 21 d |  |  | Mycobacterium kansasii | 4 µM |
| CCOC(=O)COC(Cn1nnnc1-c1ccccc1)c1ccc(Cl)cc1 | MIC | ATCC 21881 |  |  | broth dilution |  | Mycobacterium luteus | >200 µg/mL |
| C[C@]1(COc2ccc(N3CCC(Oc4ccc(OC(F)(F)F)cc4)CC3)cc2)Cn2cc([N+](=O)[O-])nc2O1 | MIC | BCG Pasteur |  |  |  |  | Mycobacterium bovis | 0.006 µg/mL |
| CCCCCCCCCCCCCCCCCCCCCCNC(=O)NC(CCC(=O)O)(CCC(=O)O)CCC(=O)O | MIC | EO-P-1 |  |  |  |  | Mycobacterium chelonae | 36 µg/mL |
| CC(=S)NC[C@H]1CN(c2ccc3c(c2)OCc2nccn2-3)C(=O)O1 | MIC |  |  |  |  |  | Mycoplasma pneumoniae | 2 µg/mL |
| Nc1ccc(C(=O)O)c(O)c1 | MIC |  |  |  | fluorescence | Thymidylate synthase (thyA) overexpressing | Mycobacterium bovis BCG | 0.5 µM |
| Cc1c(OCC(F)(F)F)ccnc1CSc1nc2ccccc2[nH]1 | MIC90 | 2005-0484 |  |  | resazurin |  | Mycobacterium massiliense | >100 µM |
| OB(O)c1ccccc1 | MIC |  |  |  | turbidity |  | Mycobacterium luteum | 250 µg/mL |
| Clc1ccc2c(c1)CCC(Nc1ncnc3ccccc13)C2 | MIC50 |  |  |  | luminescence |  | Mycobacterium bovis BCG | >50 µM |
| CSc1nc(N)c2c(n1)NC(c1ccc(C(F)(F)F)cc1)CC(c1ccc3c(c1)OCO3)=N2 | MIC | MNT1100 |  | clinical isolate | MTT / broth dilution / absorbance |  | Mycobacterium szulgai | >32 µg/mL |
| Fc1ccc2c(NCCc3ccc(OC(F)(F)F)cc3)ncnc2c1 | MIC50 |  |  |  | luminescence |  | Mycobacterium bovis BCG | >20 µM |
| CCCCCCCCCC(CCCCCCCCC)NC(=O)NC(CCC(=O)O)(CCC(=O)O)CCC(=O)O | MIC | ATCC 927 |  |  |  |  | Mycobacterium marinum | 18 µg/mL |
| NNC(=O)c1ccncc1 | MIC |  |  |  | fluorescence |  | Mycobacterium bovis BCG | 0.7 µM |
| NNC(=O)c1ccncc1 | MIC | MNT1100 |  | clinical isolate | MTT / broth dilution / absorbance |  | Mycobacterium szulgai | >0.5 µg/mL |
| Cc1cccc(NC(=O)c2ccc3cc(O)ccc3c2)c1 | MIC | Clinical isolate CIT03 (MAP) |  |  | broth dilution |  | Mycobacterium avium paratuberculosis | 27 µM |
| FC(F)(F)Oc1cccc(CCNc2ncnc3ccccc23)c1 | MIC50 |  |  |  | luminescence |  | Mycobacterium bovis BCG | >20 µM |
| O=C(Oc1ccc(Cl)cc1C(=O)Nc1ccc(Cl)c(Cl)c1)c1cnccn1 | MIC | 6509/96 |  | 21 d |  |  | Mycobacterium kansasii | 2 µM |
| OB1OC(N2CCOCC2)c2ccccc21 | MIC |  |  |  | turbidity |  | Mycobacterium luteum | 15.6 µg/mL |
| CO[C@@]1(NC(=O)Cn2cnnn2)C(=O)N2C(C(=O)O)=C(CSc3nnc(C)s3)CSC21 | MIC | 1059 |  |  |  |  | Mycobacterium fortuitum | 100 µg/mL |
| CCN(Cc1ccccc1B(O)O)c1ccccc1 | MIC |  |  |  | turbidity |  | Mycobacterium luteum | 31.2 µg/mL |
| CO[C@@]1(NC(=O)CCCC(N)C(=O)O)C(=O)N2C(C(=O)O)=C(COC(N)=O)CSC21 | MIC | 1004-8 |  |  |  |  | Mycobacterium fortuitum | >100 µg/mL |
| S=c1[nH]nc(COC(Cn2nnnc2-c2ccccc2)c2ccc(Cl)cc2)o1 | MIC | ATCC 21881 |  |  | broth dilution |  | Mycobacterium luteus | 50 µg/mL |
| CC(=O)NC[C@H]1CN(c2ccc3c(c2)OCc2cccn2-3)C(=O)O1 | MIC |  |  |  |  |  | Mycoplasma pneumoniae | 4 µg/mL |
| CO[C@@]1(NC(=O)C(C(=O)O)c2ccc(O)cc2)C(=O)N2C(C(=O)O)=C(CSc3nnnn3C)CO[C@@H]21 | MIC | 1045 |  |  |  |  | Mycobacterium fortuitum | >100 µg/mL |
| CCCCCCCN(CCCCCCC)C(=O)NC(CCC(=O)O)(CCC(=O)O)CCC(=O)O | MIC | mc155 |  |  |  |  | Mycobacterium smegmatis | 54 µg/mL |
| CO[C@@]1(NC(=O)CSCC#N)C(=O)N2C(C(=O)O)=C(CSc3nnnn3C)CS[C@@H]21 | MIC | 1059 |  |  |  |  | Mycobacterium fortuitum | 12.5 µg/mL |
| Fc1ccc2c(Nc3ccc(N4CCC5(CC4)CCN(c4ccc(C(F)(F)F)cc4)CC5)cc3)ncnc2c1 | MIC50 |  |  |  | luminescence |  | Mycobacterium bovis BCG | >50 µM |
| Nc1nc(N)c2c(n1)NC(c1ccc3c(c1)OCO3)CC(c1ccc(Cl)cc1)=N2 | MIC | MNT1193 |  | clinical isolate | MTT / broth dilution / absorbance |  | Mycobacterium scrofulaceum | 32 µg/mL |
| CCCCCCCCCC(CCCCCCCCC)OC(=O)NC(CCC(=O)O)(CCC(=O)O)CCC(=O)O | MIC | AAy-P-1 |  |  |  |  | Mycobacterium abscessus | 144 µg/mL |
| Cc1ccc(Oc2ccc(Nc3ncnc4cc(F)ccc34)cc2)cc1 | MIC50 |  |  |  | luminescence |  | Mycobacterium bovis BCG | >20 µM |
| CO[C@H]1/C=C/O[C@@]2(C)Oc3c(C)c(O)c4c(O)c(c5c(c4c3C2=O)NC2(CCN(CC(C)C)CC2)N=5)=NC(=O)/C(C)=C\C=C\[C@H](C)[C@H](O)[C@@H](C)[C@@H](O)[C@@H](C)[C@H](OC(C)=O)[C@@H]1C | MIC | N-481 (HIV-) |  |  |  |  | Mycobacterium avium intracellulare | 0.1 µg/mL |
| CC(C)NCCCCNC(C)C | inhibition | ATCC 607 | 1000 µg/mL |  |  |  | Mycobacterium smegmatis | 0% |
| Cc1nc(Nc2ccc(Oc3ccc(C(F)(F)F)cc3)cc2)c2ccccc2n1 | MIC50 |  |  |  | luminescence |  | Mycobacterium bovis BCG | >20 µM |
| CCCCCCCCCCCCCCCCCCNC(=O)NC(CCC(=O)O)(CCC(=O)O)CCC(=O)O | MIC | ATCC 927 |  |  |  |  | Mycobacterium marinum | 23 µg/mL |
| FC(F)(F)Oc1ccc(CNc2ncnc3ccsc23)cc1 | MIC50 |  |  |  | luminescence |  | Mycobacterium bovis BCG | >50 µM |
| CC(=O)NC[C@H]1CN(c2ccc3c(c2)sc2nccn23)C(=O)O1 | MIC |  |  |  |  |  | Mycoplasma pneumoniae | 16 µg/mL |
| CO[C@@]1(NC(=O)Cc2ccccc2)C(=O)N2C(C(=O)[O-])=C(CSc3nnc(C)s3)CSC21 | MIC | 914-8 |  |  |  |  | Mycobacterium fortuitum | 12.5 µg/mL |
| CO[C@H]1/C=C/O[C@@]2(C)Oc3c(C)c(O)c4c(=O)c(c5oc6cc(N7CCN(CC(C)C)CC7)cc(=O)c6nc5c4c3=C2O)NC(=O)/C(C)=C\C=C\[C@H](C)[C@H](O)[C@@H](C)[C@@H](O)[C@@H](C)[C@H](OC(C)=O)[C@@H]1C | MIC | Isolate 8756 |  |  |  |  | Mycobacterium ulcerans | 0.025 µg/mL |
| FC(F)(F)c1cccc(Oc2ccc(Nc3ncnc4ccsc34)cc2)c1 | MIC50 |  |  |  | luminescence |  | Mycobacterium bovis BCG | >50 µM |
| CC(C)N=C(N)/N=C(\N)NOCCCOc1cc(Cl)c(Cl)cc1Cl | MIC | 3176 |  |  |  |  | Mycobacterium avium complex | 32 µg/mL |
| CC1(C)CC[C@]2(C(=O)O)CC[C@]3(C)C(CC[C@@H]4[C@@]5(C)C[C@H](O)CC(C)(C)[C@@H]5CC[C@]43C)[C@@H]2C1 | MIC |  |  |  | resazurin |  | Mycobacterium simiae | 100 µg/mL |
| C[C@@H]1CN(c2c(F)c(N)c3c(=O)c(C(=O)O)cn(C4CC4)c3c2F)C[C@H](C)N1 | MIC | N-289 (HIV-) |  |  |  |  | Mycobacterium avium complex | 0.25 µg/mL |
| OB1OC(N2CCCCC2)c2ccccc21 | MIC |  |  |  | turbidity |  | Mycobacterium luteum | 1.9 µg/mL |
| CC(C)NCC(C)NC(C)C | inhibition | ATCC 607 | 250 µg/mL |  |  |  | Mycobacterium smegmatis | 100% |
| N[C@@H]1CONC1=O | inhibition | 14 strains | 60 µg/mL |  | agar |  | Mycobacterium avium complex | 100% |
| FS(F)(F)(F)(F)c1ccc(CNc2ncnc3ccccc23)cc1 | MIC50 |  |  |  | luminescence |  | Mycobacterium bovis BCG | >20 µM |
| Clc1ccc(/C=C/n2nnc(-c3ccccc3)n2)cc1 | MIC | ATCC 21881 |  |  | broth dilution |  | Mycobacterium luteus | >200 µg/mL |
| OCCCCCCCCN=C=S | MIC |  |  |  | visual reading |  | Mycobacterium scrofulaceum | 8 µg/mL |
| CSc1nc(N)c2c(n1)NC(c1ccccc1)CC(c1ccc3c(c1)OCO3)=N2 | MIC | MNT1100 |  | clinical isolate | MTT / broth dilution / absorbance |  | Mycobacterium szulgai | >32 µg/mL |
| O=C(Oc1cc(Cl)ccc1C(=O)Nc1ccc(Cl)cc1)c1cnccn1 | MIC | 235/80 |  | 21 d |  |  | Mycobacterium kansasii | 4 µM |
| CCCCCCCCCCCN(CCCCCCCCCCC)C(=O)NC(CCC(=O)O)(CCC(=O)O)CCC(=O)O | MIC | AAy-P-1 |  |  |  |  | Mycobacterium abscessus | 72 µg/mL |
| CC(=O)NC[C@H]1CN(c2ccc3c(c2)OCC2=NCCN23)C(=O)O1 | MIC |  |  |  |  |  | Mycoplasma pneumoniae | >32 µg/mL |
| Clc1ccc(CCNc2ncnc3ccsc23)cc1Cl | MIC50 |  |  |  | luminescence |  | Mycobacterium bovis BCG | >50 µM |
| NNC(=O)c1ccncc1 | MIC | N-979 (HIV+) |  |  |  |  | Mycobacterium avium complex | 1 µg/mL |
| CC(C)(C)NCCNC(C)(C)C | inhibition | ATCC 607 | 500 µg/mL |  |  |  | Mycobacterium smegmatis | 100% |
| CC(C)=CCC/C(C)=C/CNc1ncnc2ccsc12 | MIC50 |  |  |  | luminescence |  | Mycobacterium bovis BCG | >20 µM |
| CCc1cc(C(N)=S)ccn1 | MIC | MC^2 832 |  |  |  |  | Mycobacterium smegmatis | >80 µg/mL |
| Nc1nc(N)c2c(n1)NC(c1ccc3c(c1)OCO3)CC(c1ccc(F)cc1)=N2 | MIC | MNT1193 |  | clinical isolate | MTT / broth dilution / absorbance |  | Mycobacterium scrofulaceum | >32 µg/mL |
| CCCCCNCCNCCCCC | inhibition | ATCC 607 | 250 µg/mL |  |  |  | Mycobacterium smegmatis | 100% |
| FC(F)(F)c1cccc(Oc2ccc(Nc3ncnc4ccccc34)cc2)c1 | MIC50 |  |  |  | luminescence |  | Mycobacterium bovis BCG | >20 µM |
| Fc1cc(F)c(B2Oc3ccccc3O2)c(F)c1 | MBC |  |  |  | turbidity |  | Mycobacterium luteum | 250 µg/mL |
| Cc1nc(Nc2ccccc2Oc2ccc(C(F)(F)F)cc2)c2ccc(F)cc2n1 | MIC50 |  |  |  | luminescence |  | Mycobacterium bovis BCG | >50 µM |
| O=C(Oc1ccc(Cl)cc1)c1cnccn1 | MIC | 235/80 |  | 7 d |  |  | Mycobacterium kansasii | 250 µM |
| FC(F)(F)Oc1ccc(CCNc2ncnc3ccoc23)cc1 | MIC50 |  |  |  | luminescence |  | Mycobacterium bovis BCG | >20 µM |
| CC(=O)NC[C@H]1CN(c2ccc3c(c2)OCc2nccn2-3)C(=O)O1 | MIC |  |  |  |  |  | Mycoplasma pneumoniae | 4 µg/mL |

Repeating the first 4 entries:

{"structure": "O=C(O)COC(Cn1nnnc1-c1ccccc1)c1ccc(Cl)cc1", "read-out": "MIC", "strain or isolate": "ATCC 21881", "read by": "broth dilution", "organism": "Mycobacterium luteus", "value": ">200 µg/mL"}
{"structure": "Cn1ccc2ncnc(Nc3ccc(Oc4ccc(C(F)(F)F)cc4)cc3)c21", "read-out": "MIC50", "read by": "luminescence", "organism": "Mycobacterium bovis BCG", "value": "25.9 µM"}
{"structure": "CC(=O)NC[C@H]1CN(c2ccc3c(c2)OCc2cncn2-3)C(=O)O1", "read-out": "MIC", "organism": "Mycoplasma pneumoniae", "value": "4 µg/mL"}
{"structure": "CO[C@H]1/C=C/O[C@@]2(C)Oc3c(C)c(O)c4c(=O)c(c5oc6cc(N7CCN(CC(C)C)CC7)cc(=O)c6nc5c4c3=C2O)NC(=O)/C(C)=C\\C=C\\[C@H](C)[C@H](O)[C@@H](C)[C@@H](O)[C@@H](C)[C@H](OC(C)=O)[C@@H]1C", "read-out": "MIC", "strain or isolate": "N-475 (HIV-)", "organism": "Mycobacterium avium intracellulare", "value": "0.016 µg/mL"}